Test results taken from article PMC11472052, “Structural basis for difunctional mechanism of m-AMSA against African swine fever virus pP1192R” (2024).

Molecular target: African swine fever virus (ASFV) type II topoisomerase pP1192R, full-length (African swine fever virus (ASFV)) (UniProt Q00942)
Assay: SEC + AUC

“African swine fever virus (ASFV) type II topoisomerase pP1192R, full-length (from UniProt Q00942 1-1192) (enzyme)” showed a stoichiometry N of 2.
